Pooled drug test results. Numbers come from NIAID ChemDB, via PubChem.

Common to all: whole-cell or culture tests; organism: Herpes simplex virus 1; measure: EC50

Conditions beyond the fields shown may differ between rows.

smiles,strain,cells,read by,value
COc1ccc2nc3cc(Cl)ccc3c(N3CCN(CCO)CC3)c2c1,-,VERO 76,plaque count,>55 µM
CC(N)C(=O)NC1C(C)OC(=O)C2=C(O)CC(O)C(O)C21,KOS,HeLa,cytopathic effect,67 µM
O=C(O)CP(=O)(O)O,KOS BVDU-resistant,HEL,cytopathic effect,14.75 µg/mL
Nc1ncnc2c1ncn2[C@@H]1O[C@H](CO)C[C@@H]1O,C137-101 (TK-),-,cytopathic effect,20 µg/mL
Cc1cn([C@H]2C[C@H](O)[C@@H](CO)O2)c(=O)[nH]c1=O,KOS,RPMI8226,plaque count,>413 µM
COc1cc(C2c3c(cc4c(c3OC)OCO4)C[C@H]3COC(=O)[C@H]23)cc(OC)c1OC,INOUE,MRC-5,-,0.072 µg/mL
O=C(O)P(=O)(O)O,KOS,U373-MG,cytopathic effect,58 µg/mL
COc1cc([C@@H]2c3cc4c(cc3[C@H](O)[C@H]3COC(=O)[C@H]23)OCO4)cc(OC)c1OC,KOS,MRC-5,-,0.011 µg/mL
CCCCC[C@H](CC(=O)NO)C(=O)N[C@H](C(=O)N1CCC[C@H]1CO)C(C)C,KOS,HeLa,cytopathic effect,>200 µg/mL
O=C(O)CP(=O)(O)O,11-Aug,SIRC,plaque count,<500 µM
CCCCC/C=C/C/C=C/CCCCCCCCO,KOS,HeLa,cytopathic effect,>200 µg/mL
O=c1[nH]c(=S)n([C@@H]2O[C@H](CO)[C@@H](O)[C@@H]2O)cc1I,KOS,RPMI8226,plaque count,18.9 µM
O=C(O)P(=O)(O)O,KJ502,SIRC,plaque count,<100 µM
O=c1[nH]c(=S)n([C@@H]2O[C@H](CO)[C@@H](O)[C@@H]2O)cc1Cl,KOS,MRC-5,plaque count,24.5 µM
Nc1nc2c(ncn2COC(CO)CO)c(=O)[nH]1,KOS HPMPC-resistant,HEL,cytopathic effect,0.004 µg/mL
COc1ccc2nc3cc(Cl)ccc3c(NCC(C)N(C)C)c2c1,-,VERO 76,plaque count,>6 µM
O=c1ccn([C@H]2C[C@H](O)[C@@H](CO)O2)c(=S)[nH]1,KOS,MRC-5,plaque count,8.64 µM
CN[C@@H]1[C@H](O)[C@H](NC)[C@H]2O[C@@]3(O)C(=O)C[C@@H](C)O[C@H]3O[C@@H]2[C@H]1O,KOS,HeLa,cytopathic effect,>200 µg/mL
COc1ccc2nc3cc(Cl)ccc3c(N3CCN(c4ccccc4)CC3)c2c1,-,VERO 76,plaque count,>100 µM
Nc1nc2c(ncn2CCC(CO)CO)c(=O)[nH]1,KOS BVDU-resistant,HEL,cytopathic effect,4.7 µg/mL
C[C@H](N)C(=O)N[C@@H](CNC(=O)/C=C/C(N)=O)C(=O)O,KOS,HeLa,cytopathic effect,>200 µg/mL
COc1cc(C2c3cc4c(cc3C[C@H]3COC(=O)[C@H]23)OCO4)cc(OC)c1OC,A4-3,MRC-5,-,0.032 µg/mL
CC1CC(C)(O)CC(C(O)CC2CC(=O)NC(=O)C2)C1=O,KOS,HeLa,cytopathic effect,>200 µg/mL
Nc1ncnc2c1ncn2C[C@@H](CO)OCP(=O)(O)O,KOS S2242-resistant,HEL,cytopathic effect,0.11 µg/mL
COc1ccc2nc3cc(Cl)ccc3c(NCCO)c2c1,-,VERO 76,plaque count,>4 µM
CC(=O)N[C@H](C(=O)N[C@H](C(=O)N1CCC[C@H]1C(=O)NC1(C(=O)O)CC1)C(C)C)C1CCCCC1,KOS,HeLa,cytopathic effect,>100 µg/mL

Repeating the final 3 entries:

smiles,strain,cells,read by,value
Nc1ncnc2c1ncn2C[C@@H](CO)OCP(=O)(O)O,KOS S2242-resistant,HEL,cytopathic effect,0.11 µg/mL
COc1ccc2nc3cc(Cl)ccc3c(NCCO)c2c1,-,VERO 76,plaque count,>4 µM
CC(=O)N[C@H](C(=O)N[C@H](C(=O)N1CCC[C@H]1C(=O)NC1(C(=O)O)CC1)C(C)C)C1CCCCC1,KOS,HeLa,cytopathic effect,>100 µg/mL

Blank or dashed fields: not listed here. ECn: concentration that inhibits the pathogen or its effect by n%.